Compound potency records, mixed from different reports. Data source: NIAID ChemDB in PubChem.

Common to all: tests in culture

Zones are inhibition diameters on agar. MIC50, MIC90 and the like: level of inhibition, or share of isolates inhibited. Blank or dashed fields: not listed here. Rows are shuffled and stem from different studies.

smiles,organism,strain,read by,endpoint,tested at,value
CC(=O)N1CCN(c2ccc(OC[C@H]3CO[C@](Cn4ccnc4)(c4ccc(Cl)cc4Cl)O3)cc2)CC1,Candida guilliermondii,24 clinical isolates,broth dilution,MIC50,,≤0.031 µg/mL
COc1cc(C2CC(=O)c3c(O)cc(O)cc3O2)ccc1OCC=C(C)C,Candida krusei,,agar diffusion / agar,zone,100 µg/mL,0 mm
c1ccc([Se][Se]c2ccccc2)cc1,Candida guilliermondii,,broth dilution,MIC,,>64 µg/mL
Clc1ccc(COC(Cn2ccnc2)c2ccc(Cl)cc2Cl)c(Cl)c1,Candida albicans,ATCC 40277,broth dilution,MFC100,,32 µg/mL
C[C@@H]1[C@H](O)[C@@H](C)/C=C/C=C/C=C/C=C/C=C/C=C/C=C/[C@H](OC2O[C@@H](C)[C@H](O)[C@@H](N)[C@H]2O)C[C@@H]2OC(O)(C[C@@H](O)C[C@@H](O)[C@H](O)CC[C@@H](O)C[C@@H](O)CC(=O)C[C@H]1C)C[C@H](O)[C@H]2C(=O)O,Candida spp.,MTCC 1962,,MIC,,300 µg/mL
COc1cc(C[C@H](C)[C@H](C)Cc2ccc(O)c(O)c2)ccc1O,Candida colliculosa,CCC 122-2000,broth dilution,MIC100,,62.5 µg/mL
CN(C/C=C/C#CC(C)(C)C)Cc1cccc2ccccc12,Candida parapsilosis,52 clinical isolates,broth dilution,MIC90,,>16 µg/mL
COC(=O)[C@H]1[C@@H]2C[C@@H](O[C@@H]3O[C@H](C)[C@@H](O)[C@H](N)[C@@H]3O)/C=C/C=C/C=C/C=C/C=C/C=C/C=C/[C@H](C)[C@@H](O)[C@H](C)[C@H](C)OC(=O)C[C@H](O)C[C@H](O)[C@@H](O)CC[C@H](O)C[C@H](O)C[C@](O)(C[C@@H]1O)O2,Candida spp.,Clinical isolates,,MIC,,1 µg/mL
FC(F)(F)c1cccc([Se][Se]c2cccc(C(F)(F)F)c2)c1,Candida dubliniensis,,broth dilution,MFC,,>64 µg/mL
C[C@@H]1[C@H](O)[C@@H](C)/C=C/C=C/CC/C=C/C=C/C=C/C=C/C(O[C@H]2O[C@H](C)[C@@H](O)[C@H](N)[C@@H]2O)CC2O[C@](O)(CC(O)C(O)CCC(O)CC(O)CC(O)CC(=O)O[C@H]1C)CC(O)C2C(=O)O,Candida dubliniensis,,agar diffusion / agar,zone,100 µg/mL,0 mm
OC(Cn1cncn1)(Cn1cncn1)c1ccc(F)cc1F,Candida albicans,YL 313,broth dilution,MIC,,256 µg/mL
CC(=O)N1CCN(c2ccc(OC[C@H]3CO[C@](Cn4ccnc4)(c4ccc(Cl)cc4Cl)O3)cc2)CC1,Candida albicans,Isogenic isolate 3 MDR1 (25X),,MIC,,0.004 µg/mL
O=C(OC1Cc2c(O)cc(O)cc2OC1c1cc(O)c(O)c(O)c1)c1cc(O)c(O)c(O)c1,Candida tropicalis,Clinical isolate 1,broth dilution,MIC50,,>128 µg/mL
CC(C)CCOc1ccc(C2CC(=O)c3c(O)cc(O)cc3O2)cc1,Candida dubliniensis,,agar diffusion / agar,zone,100 µg/mL,0 mm

The last 2 rows once more:

smiles,organism,strain,read by,endpoint,tested at,value
O=C(OC1Cc2c(O)cc(O)cc2OC1c1cc(O)c(O)c(O)c1)c1cc(O)c(O)c(O)c1,Candida tropicalis,Clinical isolate 1,broth dilution,MIC50,,>128 µg/mL
CC(C)CCOc1ccc(C2CC(=O)c3c(O)cc(O)cc3O2)cc1,Candida dubliniensis,,agar diffusion / agar,zone,100 µg/mL,0 mm